Data from ChEMBL document CHEMBL4354878, “Structure-Based Bioisosterism Yields HIV-1 NNRTIs with Improved Drug-Resistance Profiles and Favorable Pharmacokinetic Properties” (J Med Chem, 2020).

Tests used:
[1] = biological target: Human immunodeficiency virus type 1 reverse transcriptase (Human immunodeficiency virus 1, UniProt Q72547); assay: Inhibition of HIV1 RT in presence of reconstituted template and viral nucleotides [digoxigenin (DIG)-dUTP, biotin-dUTP and dTTP] incubated for 1 hr by ELISA method
[2] = biological target: Human immunodeficiency virus type 1 reverse transcriptase (Human immunodeficiency virus 1, UniProt Q72547, L100I); assay: Inhibition of HIV1 RT L100I mutant in presence of reconstituted template and viral nucleotides [digoxigenin (DIG)-dUTP, biotin-dUTP and dTTP] incubated for 1 hr by ELISA method
[3] = biological target: Human immunodeficiency virus type 1 reverse transcriptase (Human immunodeficiency virus 1, UniProt Q72547, K103N); assay: Inhibition of HIV1 RT K103N mutant in presence of reconstituted template and viral nucleotides [digoxigenin (DIG)-dUTP, biotin-dUTP and dTTP] incubated for 1 hr by ELISA method
[4] = biological target: Human immunodeficiency virus type 1 reverse transcriptase (Human immunodeficiency virus 1, UniProt Q72547, Y181C); assay: Inhibition of HIV1 RT Y181C mutant in presence of reconstituted template and viral nucleotides [digoxigenin (DIG)-dUTP, biotin-dUTP and dTTP] incubated for 1 hr by ELISA method
[5] = biological target: Human immunodeficiency virus type 1 reverse transcriptase (Human immunodeficiency virus 1, UniProt Q72547, Y188L); assay: Inhibition of HIV1 RT Y188L mutant in presence of reconstituted template and viral nucleotides [digoxigenin (DIG)-dUTP, biotin-dUTP and dTTP] incubated for 1 hr by ELISA method
[6] = biological target: Human immunodeficiency virus type 1 reverse transcriptase (Human immunodeficiency virus 1, UniProt Q72547, E138K); assay: Inhibition of HIV1 RT E138K mutant in presence of reconstituted template and viral nucleotides [digoxigenin (DIG)-dUTP, biotin-dUTP and dTTP] incubated for 1 hr by ELISA method

Cc1cc(C#N)cc(C)c1Oc1nc(Nc2ccc(C#N)cc2)nc(N)c1Br [ETRAVIRINE]
IC50 [1]: 12 nM
IC50 [2]: 13 nM
IC50 [3]: 25 nM
IC50 [4]: 17 nM
IC50 [5]: 46 nM
IC50 [6]: 32 nM
